Results deposited as PubChem BioAssay AID1259414 (Drosophila RNAi Screening Center, 2018).
Screen: 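Host factors increasing or decreasing Wolbachia levels in cultured fly cells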 (primary screen). System: Drosophila JW18 cells infected with Wolbachia. Knock-down reagent: long dsRNA against Drosophila genes, 0.25 µg dsRNA per well of a 384-well plate. Time to read-out: 5 days. Challenge: cells persistently infected with Wolbachia before knock-down; no added drug. Read-out: 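Automated imaging of bacterial rRNA staining divided by host cell count, reported as plate-normalised robust z-score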. Scale: Wolbachia per cell robust z: higher = more Wolbachia per host cell than the plate typical. Call rule: 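Active if absolute robust z reaches 1.5 in two or more of three replicates, leaving out multi- or no-target dsRNAs, genes unexpressed in JW18 and A1 wells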.
In all, the deposit lists about 24,000 reagents; below is an unselected part of those with a known target gene and a result. Over the whole deposit, about 1,210 (5%) are marked active. 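Inactive calls also include excluded dsRNAs with several or no targets, genes unexpressed in JW18, and well A1, regardless of score.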 Entries without a mark were called inactive. Reagents against one gene are numbered here. A plus sign joins genes that one reagent is predicted to hit.

With Pi3K68D (GeneID 39329) #1, what was measured?
Wolbachia per cell robust z, rep 1: -1.33; Wolbachia per cell robust z, rep 2: -3.43; Wolbachia per cell robust z, rep 3: -0.326

Which result is listed for Pi3K68D (GeneID 39329) #2?
Wolbachia per cell robust z, rep 1: -0.943; Wolbachia per cell robust z, rep 2: -0.163; Wolbachia per cell robust z, rep 3: -0.228

How did the screen score Muc18B (GeneID 32913) #1?
Wolbachia per cell robust z, rep 1: 0.781; Wolbachia per cell robust z, rep 2: 0.807; Wolbachia per cell robust z, rep 3: 0.614

Which result is listed for Muc18B (GeneID 32913) #2?
Wolbachia per cell robust z, rep 1: 0.0593; Wolbachia per cell robust z, rep 2: 0.318; Wolbachia per cell robust z, rep 3: -0.624

For Hmt4-20 (GeneID 31015) #1, what was measured?
Wolbachia per cell robust z, rep 1: -0.566; Wolbachia per cell robust z, rep 2: 0.101; Wolbachia per cell robust z, rep 3: 1.03

What is on record for Hmt4-20 (GeneID 31015) #2?
Wolbachia per cell robust z, rep 1: 0.995; Wolbachia per cell robust z, rep 2: 0.665; Wolbachia per cell robust z, rep 3: -0.221

For Spt6 (GeneID 44000), what does the deposit list?
Wolbachia per cell robust z, rep 1: 4.08 (active); Wolbachia per cell robust z, rep 2: 0.959; Wolbachia per cell robust z, rep 3: 2.23

What did the screen give for Ref1 (GeneID 44029) #1?
Wolbachia per cell robust z, rep 1: 0.691; Wolbachia per cell robust z, rep 2: -3.5; Wolbachia per cell robust z, rep 3: -3.09

For Ref1 (GeneID 44029) #2, what was measured?
Wolbachia per cell robust z, rep 1: 0.301; Wolbachia per cell robust z, rep 2: -0.446; Wolbachia per cell robust z, rep 3: 0.112

With CoRest (GeneID 32941) #1, what was measured?
Wolbachia per cell robust z, rep 1: -1.55 (active); Wolbachia per cell robust z, rep 2: -8.01; Wolbachia per cell robust z, rep 3: -8.32

Which result is listed for CoRest (GeneID 32941) #2?
Wolbachia per cell robust z, rep 1: -1.46; Wolbachia per cell robust z, rep 2: 0.277; Wolbachia per cell robust z, rep 3: 0.365

For CoRest (GeneID 32941) #3, how do the results read?
Wolbachia per cell robust z, rep 1: -0.535; Wolbachia per cell robust z, rep 2: 0.0374; Wolbachia per cell robust z, rep 3: -0.625

What did the screen give for CoRest (GeneID 32941) #4?
Wolbachia per cell robust z, rep 1: -0.301; Wolbachia per cell robust z, rep 2: 1.57; Wolbachia per cell robust z, rep 3: -7.56

Entries listed above called active, once more:
Spt6 (GeneID 44000) — Wolbachia per cell robust z, rep 1 = 4.08 (active); Wolbachia per cell robust z, rep 2 = 0.959; Wolbachia per cell robust z, rep 3 = 2.23
CoRest (GeneID 32941) #1 — Wolbachia per cell robust z, rep 1 = -1.55 (active); Wolbachia per cell robust z, rep 2 = -8.01; Wolbachia per cell robust z, rep 3 = -8.32

Next records follow.
With CG6048 (GeneID 31528) #1, how do the results read?
Wolbachia per cell robust z, rep 1: 0.887; Wolbachia per cell robust z, rep 2: 0.894; Wolbachia per cell robust z, rep 3: 1

With CG6048 (GeneID 31528) #2, what was measured?
Wolbachia per cell robust z, rep 1: 0.682; Wolbachia per cell robust z, rep 2: -0.116; Wolbachia per cell robust z, rep 3: 0.579

How did the screen score ome (GeneID 44297) #1?
Wolbachia per cell robust z, rep 1: 0.441; Wolbachia per cell robust z, rep 2: 0.826; Wolbachia per cell robust z, rep 3: -0.225

Which result is listed for ome (GeneID 44297) #2?
Wolbachia per cell robust z, rep 1: -0.741; Wolbachia per cell robust z, rep 2: 0.238; Wolbachia per cell robust z, rep 3: 0.758

Which result is listed for ome (GeneID 44297) #3?
Wolbachia per cell robust z, rep 1: 0.093; Wolbachia per cell robust z, rep 2: -1.04; Wolbachia per cell robust z, rep 3: 0.837

What is on record for ste24c + CG30461 #1?
Wolbachia per cell robust z, rep 1: -3.21; Wolbachia per cell robust z, rep 2: -1.03; Wolbachia per cell robust z, rep 3: 0.313

How did the screen score ste24c + CG30461 #2?
Wolbachia per cell robust z, rep 1: 0.0316; Wolbachia per cell robust z, rep 2: -5.53; Wolbachia per cell robust z, rep 3: -0.0943

With CG11247 (GeneID 40414) #1, what does the deposit list?
Wolbachia per cell robust z, rep 1: -0.857; Wolbachia per cell robust z, rep 2: 0.669; Wolbachia per cell robust z, rep 3: 0.794

With CG11247 (GeneID 40414) #2, what was measured?
Wolbachia per cell robust z, rep 1: -2.09; Wolbachia per cell robust z, rep 2: -0.896; Wolbachia per cell robust z, rep 3: -0.384

For CG11247 (GeneID 40414) #3, what does the deposit list?
Wolbachia per cell robust z, rep 1: -0.791; Wolbachia per cell robust z, rep 2: 0.0563; Wolbachia per cell robust z, rep 3: -0.0375

What is on record for S-Lap3 (GeneID 326187) #1?
Wolbachia per cell robust z, rep 1: -1.99; Wolbachia per cell robust z, rep 2: 0.0765; Wolbachia per cell robust z, rep 3: 0.123

What is on record for S-Lap3 (GeneID 326187) #2?
Wolbachia per cell robust z, rep 1: -0.632; Wolbachia per cell robust z, rep 2: 0.288; Wolbachia per cell robust z, rep 3: -1.67
